The text below walks through data of EP2365091A1, “Method of screening for HtrA protease inhibitors useful for prophylaxis and therapy of a bacterial infection” (Paul-Ehrlich-Institut, priority 2010, dated 2011).

The test system of one experiment is HtrA. In words: In vitro cleavage of recombinant E-Cadherin by HtrA (Western blot). The experiment is classed as biochemical, Helicobacter pylori. The following applies: 5 ng/µl HtrA, 16 h, MMP-inhibitor II 5 x IC50 (Fig. 11E). On the procedure:
For in vitro cleavage studies, recombinant E-Cadherin, EGFR and JAM chimera, IgA or Casein, (R&D Systems, Wiesbaden, Germany) were incubated with HtrA^wt, HtrA^S205A or MMP7 in 50 mM HEPES (pH 7.4) at 37°C for 16 h. Where indicated, HHI or MMP inhibitor II were added. Reactions were stopped by boiling in Laemmli buffer, followed by 8% SDS-PAGE and Western blotting.

In the next experiment the test system is MKN-28 cells. As to the kind of experiment: Hp-induced ectopic E-Cadherin shedding in infected cells (Western blot of supernatants and lysates). The following applies: 150 nM MMP inhibitor II (5x IC50), with or without ADAM10 siRNA (Fig. 1C). The protocol: The human gastric adenocarcinoma cell line MKN-28 was grown in RPMI1640 medium (Biochrom, Berlin, Germany) and human breast cancer cells (MCF-7) in DMEM medium (Biochrom) containing 4 mM glutamine (Invitrogen, Karlsruhe, Germany]), and 10% FCS (Biowest, Nuaillé, France) in a humidified 5% CO2 (MKN-28) or 10% CO2 (MCF-7) atmosphere at 37°C. Cells were seeded in tissue culture plates 48 hours before infection and grown to confluence. 1-2 h hours prior to infection, medium was replaced by fresh serum-free media. Where indicated, cells were incubated with indicated concentrations of HHI or MMP inhibitor II (blocks MMP1, MMP3, MMP7 and MMP9) (Calbiochem, Merck , Darmstadt, Germany).
Hp strains Hp26695 and P12 were cultured on agar plates containing 10% horse serum under microaerophilic conditions at 37°C for 48 hours. For infection, bacteria were harvested in PBS Dulbecco's medium, pH 7.4, added to the host cells at a multiplicity of infection (MOI) of 50 or 100 for the indicated time periods and monitored using an inverse phase-contrast microscope (model TS 100, INTAS). To quantify bacteria translocating through cellular monolayers, MKN-28 cells were grown to confluence on filters prior to infection with Hp for 48 h. Translocating Hp were cultured and CFU were counted. All experiments were repeated 3-4 times. […]
In general terms: Immunoblotting shows a protein as a band on a membrane.

Regarding `COc1ccc(S(=O)(=O)N2CC(C)(C)CN(S(=O)(=O)c3ccc(OC)cc3)C2C(=O)NO)cc1`, the “HtrA activity (E-Cadherin cleavage)” value in the experiment on HtrA is “did not block”. Further, the “Hp-mediated E-Cadherin cleavage on host cells” value in the experiment with MKN-28 cells is listed as “neither inhibition of MMPs nor additional down-regulation of ADAM10 expression efficiently blocked”.
